According to the supplement of paper PMC9931576:
Substitutions are numbered along the chain they refer to. Human monoclonal antibodies against the spike receptor-binding domain (heavy:light variable regions). IC50 against pseudoviruses bearing the spike of naturally observed variants; lower = stronger; >10 µg/ml means not reached at the top dose. No active / inactive call. The stated detection limit is 0.0005 µg/ml; values near or below 0.001 µg/ml lie at the floor of the assay.

B1: BD56-1460 (protein)
chain 1: QVQLVQSGGEVKKPGASVKVSCKASGYSFTSFGFSWVRQAPGQGLEWVGWISASNGNTNYAQTLQGRVTLTTDTSTKTAYMELRSLRSDDTAVYYCARVFGIYDYIWGNYPYPPYFDFWGQGTLVTVSS
chain 2: SYELTQPPSVSVSPGQTASITCSGDKLGDKFACWYQQKPGQSPVLVIYQDGKRPSGIPERVSGSNSGNTVTLTISGTQAMDEADYYCLAWDSSTVIFGGGTKLTVL
B2: BD56-1446 (protein)
chain 1: QIQLLQSGPEVKKPGTSVKVSCRASGFTFRSSAVQWLRQTRGQRLEWIGWIVAGSGDTDYAQKFQERATITRDMSTSTTYMELSSLRSEDTAVYYCAAPSCSSTICYDGFNLWGQGTMVTVSS
chain 2: EIVLTQSPGTLSLSPGERATLSCRASQSARANYLAWYQQKPGQAPRLLIYGASSRATGIPDRFSGSGSGTDFTLTISRLEPEDFSVYYCQQYGTSPWTFGQGTKVEIK
B3: BD56-1459 (protein)
chain 1: EVQLVESGGGLVKPGGSLRLSCVASGFTFSGYSMNWVRQAPGQGLEWVSSMGSSSSYISYADSVRGRFTISRDNARNSLYLQMNSLRAEDTAIYYCARDVSVIYCSDGSCYFDYWGQGTLVTVSS
chain 2: B2 chain 2 with A29V, A31S, N32S, G51D, L79V, S85A, T94A, W97G, F99L
B4: COV2-2381 (protein)
chain 1: QMQLVQSGPEVKKPGTSVKVSCKASGFTFTSSAVQWVRQARGQRLEWIGWIAVGSGNTNYAQKFQERVSITRDMSTSTAYMELSSLRSEDTAVYYCAAPYCSRTSCHDAFDIWGQGTKVTVSS
chain 2: EVVLTQSPGTLSLSPGERATLSCRASQSVSSSYLAWYQQKPGQAPRLLIYGASSRATGIPDRFSGSGSGTDFTLTISRLEPEDFAVYHCQHFGSSSQWTFGQGTKVEIK
B5: BD56-1456 (protein)
chain 1: QVQLVQSGAEVKKPGASVKVSCKASGYTFTSYGIGWVRQAPGQGLEWMGWISAPNGDTNYAQNVRGRVTVTTDTSTSTAYMELRRLRSGDTAVYYCARVFGIYDYIWGSYPYPPFFDYWGQGTLVTVSS
chain 2: SYELTQPPSVSVSPGQTASITCSGDKLGDKYASWYQQKPGQSPVVVIYQQNKRPSGIPERFSGSISGSTATLTISGTQAMDEADYYCQAWDSSTVVFGGGTKLTVL
B6: BD56-1457 (protein)
chain 1: EVQLVESGGGLVQPGRSLRLSCAASGFNFDDYAMHWVRQAPGKGLEWVSGSSWNSATIDYADSVKGRFIISRDNAKNSLFLQMNSLRTEDTAFYYCAKGLNPYYLDTSGYYNDLDAFDVWGLGTMVTVSS
chain 2: EIVLTQSPGTLSLSPGERATLSCRASQSVSSSYFAWYQQKPGQAPRLLIYGASTRATGIPDRFSGSGSGTDFTLTISRLEPEDFAVYYCQQYGSSLLTFGGGTKVEIK
B7: BD56-1451 (protein)
chain 1: QVTLRESGPALVKPTQTLTLTCTFSGFSLSTSGMCVSWIRQPPGKALEWLALIDWDDDKSYSISLKTRLTISKDTSKNQVVLTMTNMAPVDTATYYCARIRGGSSAYQYDYYGMDVWGQGTTVTVSS
chain 2: SYELTQPPSVSVSPGQTARITCSGDAWPKQYAYWYQQKPGQAPVLVIYKDTERPSGIPERFSGSSSGTTVTLTISGVQAEDEADYYCQSADSRHWVFGGGTKLTVL
B8: BD56-1467 (protein)
chain 1: QLQLQESGPGLVKPSETLSLTCTVSGGSIGSRSYYWGWIRQSPGKGLEWIGNIYYNGNTYYNPSLKSRVTISLDTSRNQFSLKLNSVTAADTAVYYCARVGGEGDYFDYWGQGTLVTVSS
chain 2: DIQMTQSPSTLSASVGDRVTITCRASQSISTWLAWYQQKPGKAPKLLIYKASLLESVLPSRFSGSGSGTEFTLTISSLQPDDFATYYCQQYNSYRTFGQGTKVEIK
B9: BD56-1439 (protein)
chain 1: QVQLVESGGGLVKPGGSLRLSCAVSGFIFSDYSMSWIRQAPGKGLEWISYIPDTSSYTDYADSVKGRFTISRDNDKNSLYLQMDSLRAEDTAVYYCARVSQIYCSGGSCYSGNYFDYWGQGTLVTVSS
chain 2: ETVMTQSPATLSVSPGERVTLSCRASQHISSNLAWYQQKPGQAPRLLIYSASTRATSIPARFSGSGSGTEFSLTISSLQSADFALYYCLQYDNWPGTFGQGTKLEIK
B10: BD56-1447 (protein)
chain 1: QVQLVQSGAEVKKPGASVKLSCKASGYTFSSNYIHWVRQAPGQGLEWMGIINPSGGSTRYAQKFQGRVSMTRDTSTSTVYMELSSLRSADTAVYYCARSMYRTSSEGNYYYYYMDVWGKGTTVTVSS
chain 2: QSALTQPASVSGSPGQSITISCTETASDFALYNYVSWYQRRPGEAPKLVIYDVNKRPSGVSNRFSGSKSGNTASLTISGLQAEDEADYYCSSYTSANIHAVFGGGTKLTVL
B11: BD56-1466 (protein)
chain 1: B10 chain 1 with L20V, S30T, N32Y, I34M, M48L, S54T, S69T, S77T, A89E, R102T
chain 2: QSALTQPASVSGSPGQSITISCTGTTSDVGGYNYVSWYQQHPGKVPKLMIYDVSKRPSGVSNRFSGSKSGKTASLTISGLQAEDEADYYCSSYTSSSIHAVFGGGTKLTVL
B12: BD56-1462 (protein)
chain 1: VHLVESGGGVVQPGRSLRLSCAASGFTFTSHAMHWVRQAPGKGLEWVAVTSYDGNYKYYSDSVKGRFTISRDNSKSTLYLQMNSLRAEDTAVYYCARAALEYCANGVCYFEYWGQGTLVTVSS
chain 2: NFMLTQSHSVSESPGKTVTISCTGSGGTIASNYVQWYQQRPGSAPTTVIYEDNQRPSGVPERFSGSIDSSSNSASLTISGLKTEDEAVYYCQSYDVNNLWVFGGGTTLTVL

Biological target: SARS-CoV-2 Omicron BA.1 spike pseudovirus
Test: pseudovirus neutralization IC50; higher = weaker neutralization
Description: (§1)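 Single-round VSV luciferase pseudovirus mixed with antibody dilutions for 1 h and put on Huh-7 cells for about a day; IC50 from the dose curve.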

Binder | pseudovirus neutralization IC50 [µg/mL]
B1 | > 10
B2 | 0.00137
B3 | 0.00925
B4 | 0.187
B5 | 0.343
B6 | 0.0616
B7 | > 10
B8 | > 10
B9 | 0.00261
B10 | > 10
B11 | > 10
B12 | > 10

Biological target: SARS-CoV-2 Omicron BA.2 spike pseudovirus
Test: as above
Description: as §1

Binder | pseudovirus neutralization IC50 [µg/mL]
B1 | > 10
B2 | 0.00108
B3 | 0.00603
B4 | 1.09
B5 | 0.158
B6 | 0.0528
B7 | > 10
B8 | > 10
B9 | 0.00374
B10 | 0.00695
B11 | > 10
B12 | > 10

Biological target: SARS-CoV-2 Omicron BA.2.75 spike pseudovirus
Test: as above
Description: as §1

Binder | pseudovirus neutralization IC50 [µg/mL]
B1 | > 10
B2 | 0.00249
B3 | 0.0056
B4 | 0.0244
B5 | 0.276
B6 | 0.0765
B7 | > 10
B8 | > 10
B9 | 0.00531
B10 | > 10
B11 | > 10
B12 | > 10

Biological target: SARS-CoV-2 Omicron BA.5 spike pseudovirus
Test: as above
Description: as §1

Binder | pseudovirus neutralization IC50 [µg/mL]
B1 | > 10
B2 | 0.215
B3 | > 10
B4 | > 10
B5 | 2.77
B6 | 0.0558
B7 | > 10
B8 | > 10
B9 | > 10
B10 | 0.0236
B11 | > 10
B12 | > 10

Biological target: SARS-CoV-2 Omicron BQ.1.1 spike pseudovirus
Test: as above
Description: as §1

Binder | pseudovirus neutralization IC50 [µg/mL]
B1 | > 10
B2 | 0.259
B3 | > 10
B4 | > 10
B5 | > 10
B6 | > 10
B7 | > 10
B8 | > 10
B9 | > 10
B10 | > 10
B11 | > 10
B12 | > 10

Biological target: SARS-CoV-2 Omicron XBB spike pseudovirus
Test: as above
Description: as §1

Binder | pseudovirus neutralization IC50 [µg/mL]
B1 | > 10
B2 | 2.89
B3 | > 10
B4 | > 10
B5 | 3.45
B6 | 2.65
B7 | > 10
B8 | > 10
B9 | > 10
B10 | > 10
B11 | > 10
B12 | > 10

Biological target: SARS-CoV-2 early D614G spike pseudovirus
Test: as above
Description: as §1

Binder | pseudovirus neutralization IC50 [µg/mL]
B1 | 0.253
B2 | 0.00101
B3 | 0.00158
B4 | 0.0079
B5 | 0.0253
B6 | 0.048
B7 | 2.54
B8 | 0.44
B9 | 0.00213
B10 | 0.0018
B11 | 0.00402
B12 | 0.395
